Pooled drug test results. Numbers come from NIAID ChemDB, via PubChem.

Common to all: tests in culture; organism: Candida albicans

a–b is a range or a potency band. MIC50, MIC90 and the like: level of inhibition, or share of isolates inhibited. Blank or dashed fields: not listed here. ECn: concentration that inhibits the pathogen or its effect by n%. Neighbouring rows are from separate reports.

SMILES | strain or isolate | method | measure | result
CC(C)[C@H](NC(=O)C[C@@H](NC(=O)C[C@H](CCCCN)NC(=O)N[C@@H](NC(=O)C[C@@H](NC(=O)C[C@H](CCCCN)NC(=O)N[C@@H](NC(=O)C[C@@H](N)C(C)C)C(C)C)C(C)C)C(C)C)C(C)C)NC(=O)N[C@@H](CCCCN)CC(N)=O | SC5314 | XTT / broth dilution | MIC | 128 µg/mL
CCN1CCS/C1=C(/C#N)n1ccnc1 |  |  | MIC | >100 µg/mL
Cc1c(C(=O)O)c(-c2ccc(Br)cc2)cn1-c1ccc(Br)cc1 | 40 strains |  | Mean MIC | 12.29 µg/mL
Cn1cc(C(=O)c2ccc(Cl)cc2)cc1/C=C/C(=O)O |  |  | MIC | >30 µg/mL
CCCCCCCCCCCC[N+](C)(C)COC(C)CCCCCC | ATCC 10231 |  | MBC | 128 µM
NCCCC[C@@H](CC(N)=O)NC(=O)N[C@H](Cc1ccccc1)NC(=O)[C@H]1CCCC[C@@H]1N | SC5314 | XTT / broth dilution | MIC | 8 µg/mL
CCN1/C(=C(\C#N)n2ccnc2)SCC1C |  |  | MIC | >100 µg/mL
CN(C)c1ccc(C(=O)c2cc(/C=C/C(=O)O)n(C)c2)cc1 |  |  | MIC | >125 µg/mL
Cc1ccc(C2=NN(N=O)C(c3cn(-c4ccccc4)nc3-c3ccc(Br)s3)C2)cc1 |  |  | MIC | 200 µg/mL
CCCCCCCCCCCC[N+](C)(C)COCCCCCCC | ATCC 10231 |  | MBC | 26.4 µM
COc1ccc(C2C(C)C(=O)C(C)C(c3ccc(OC)cc3)N2OCCc2nc3ncccc3[nH]2)cc1 | NCIM-C27 |  | MIC | 25 µg/mL
Cc1ccc(-c2cc(-c3cn(-c4ccccc4)nc3-c3ccc(Br)s3)n(-c3ccc(C)cc3)n2)cc1 |  |  | MIC | 50 µg/mL
O=[N+]([O-])c1ccc(NC(=S)N/N=C/c2c[nH]c3ccccc23)cc1 | ATCC 24433 | broth dilution | MIC | 500 µg/mL
CCCCCCCCCCCC[N+](C)(C)COC(C)C | ATCC 10231 |  | MBC | 311 µM
Cc1ccc(Cn2cncc2CNc2cccc(-c3ccccc3)c2)cc1 | 3 strains |  | MIC | 6.25–12.5 µM
CCCCCCCCCCCC[N+](C)(C)COCCCC | ATCC 10231 |  | MIC | 74 µM
CCCCNC(=S)N/N=C/c1c[nH]c2ccccc12 | ATCC 24433 | broth dilution | MIC | 500 µg/mL
COc1cc(C[C@@]2(O)CO[C@H](c3ccc(O)c(OC)c3)[C@H]2CO[C@@H]2O[C@H](CO)[C@@H](O)[C@H](O)[C@H]2O)ccc1O | ATCC 90028 | MTT | MIC | 6 µg/mL
O=Nc1c(-c2ccc(F)cc2)nc2ncccn12 |  |  | MIC | 15 µg/mL
CC1CCS/C(=C(/C#N)n2cnc3ccccc32)S1 |  |  | MIC | >100 µg/mL
Cn1cc(C(=O)c2ccc([N+](=O)[O-])cc2)cc1/C=C/C(=O)O |  |  | MIC | >15 µg/mL
O=C1CC(c2ccc(Cl)cc2)N(OCCc2nc3ncccc3[nH]2)C(c2ccc(Cl)cc2)C1 | NCIM-C27 |  | MIC | 50 µg/mL
CCCCCCCCCCCC[N+](C)(C)COCCC | ATCC 10231 |  | MBC | 155 µM
O=Nc1c(-c2ccc(Br)cc2)nc2ncccn12 |  |  | MIC | 5 µg/mL
CC1C(=O)C(C)C(c2ccc(Cl)cc2)N(OCCc2nc3ncccc3[nH]2)C1c1ccc(Cl)cc1 | 6 (NCIM-C27) |  | MIC | 50 µg/mL
Cc1ccc(C2=NN(C(=S)Nc3ccccc3)C(c3cn(-c4ccccc4)nc3-c3ccc(Br)s3)C2)cc1 |  |  | MIC | >200 µg/mL
CCCCCCCCCCOC[N+](C)(C)CCCCCCCC | ATCC 10231 |  | MBC | 137 µM
CCOC(=O)/C=C/c1cc(C(=O)c2ccc(OC)cc2)cn1C |  |  | MIC | >15 µg/mL
CC(C)NC(=S)N/N=C/c1c[nH]c2ccccc12 | ATCC 24433 | broth dilution | MIC | 250 µg/mL
C[C@@H](NC(=O)N[C@@H](CCCCN)CC(N)=O)NC(=O)[C@H]1CCCC[C@@H]1N | SC5314 | XTT / broth dilution | MIC | >128 µg/mL
Cc1c(C(=O)O)c(-c2ccc(Br)cc2)cn1-c1ccc(Cl)cc1 | 40 strains |  | Mean MIC | 17.32 µg/mL
C=CCc1ccc(OC)c(OC)c1 | 2508 | turbidity | MIC90 | 345 µg/mL
Cc1c(C(=O)O)c(-c2ccc(Cl)cc2)cn1-c1ccc(Cl)cc1 | 40 strains |  | EC50 | >24.9 µg/mL
CCCCCCCCCCCC[N+](C)(C)COC(CC)CCCCC | ATCC 10231 |  | MBC | 12.8 µM
CCOC(=O)/C=C/c1cc(C(=O)c2ccc(-n3ccnc3)cc2)cn1C |  |  | MIC | >30 µg/mL
CC(=O)N1N=C(c2ccc(C)cc2)CC1c1cn(-c2ccccc2)nc1-c1ccc(Br)s1 |  |  | MIC | >200 µg/mL
CCC(C)[C@H](N)CC(=O)N[C@@H](CC)NC(=O)N[C@@H](CCCN=C(N)N)CC(=O)N[C@H](CC(=O)N[C@@H](CC)NC(=O)N[C@@H](CCCN=C(N)N)CC(=O)N[C@H](CC(=O)N[C@@H](CC)NC(=O)N[C@@H](CCCN=C(N)N)CC(N)=O)C(C)CC)C(C)CC | SC5314 | XTT / broth dilution | MIC | 128 µg/mL
CCCCCCCCCCCCOC[N+](C)(C)CCCCCCCC | ATCC 10231 |  | MIC | 12.8 µM
COc1ccc(NC(=S)N/N=C/c2c[nH]c3ccccc23)cc1 | ATCC 24433 | broth dilution | MIC | 250 µg/mL
Cc1ccc(-n2cc(-c3ccc(Cl)cc3)c(C(=O)O)c2C)cc1 | 40 strains |  | EC50 | >52.92 µg/mL
Cc1ccc(-c2nc3ncccn3c2N=O)cc1 |  |  | MIC | 30 µg/mL
S=C(N/N=C/c1c[nH]c2ccccc12)Nc1ccccc1 | ATCC 24433 | broth dilution | MIC | 500 µg/mL
O=C(/C(=C1/SCCN1c1ccccc1)n1ccnc1)c1ccc(Cl)cc1 |  |  | MIC | >100 µg/mL
COC(=O)c1c(N)oc2c(C)c(C)c(O)c(Sc3cccc(C)c3)c12 | KCCM 50235 | broth dilution | MIC | 25 µg/mL
Cc1c(C(=O)O)c(-c2ccc(F)cc2)cn1-c1ccc(Cl)cc1 | 40 strains |  | EC50 | >26.04 µg/mL
CCCCCCCCOc1ccc(-c2ccc(C(=O)NC3CC(NCCN)CNC(=O)[C@@H]4[C@@H](O)[C@@H](C)CN4C(=O)[C@@H](CO)NC(=O)[C@H]([C@H](O)Cc4ccccc4)NC(=O)[C@@H]4C[C@@H](O)CN4C(=O)[C@H]([C@@H](C)O)NC3=O)cc2)cc1 | K1 |  | MIC | 0.5 µg/mL
Cc1ccc(-n2cc(-c3ccc(F)cc3)c(C(=O)O)c2C)cc1 | 40 strains |  | Mean MIC | 11.91 µg/mL
COC(=O)c1c(N)oc2ccc(O)cc12 | KCCM 50235 | broth dilution | MIC | 25 µg/mL

A second listing of 5 rows from above:

{"SMILES": "Cc1ccc(-n2cc(-c3ccc(Cl)cc3)c(C(=O)O)c2C)cc1", "strain or isolate": "40 strains", "measure": "EC50", "result": ">52.92 µg/mL"}
{"SMILES": "CC1CCS/C(=C(/C#N)n2cnc3ccccc32)S1", "measure": "MIC", "result": ">100 µg/mL"}
{"SMILES": "Cc1c(C(=O)O)c(-c2ccc(Cl)cc2)cn1-c1ccc(Cl)cc1", "strain or isolate": "40 strains", "measure": "EC50", "result": ">24.9 µg/mL"}
{"SMILES": "CCN1/C(=C(\\C#N)n2ccnc2)SCC1C", "measure": "MIC", "result": ">100 µg/mL"}
{"SMILES": "CCCCCCCCCCCC[N+](C)(C)COCCCCCCC", "strain or isolate": "ATCC 10231", "measure": "MBC", "result": "26.4 µM"}